Measured values published in patent US10913736B2 (UNIVERSITY OF WASHINGTON, priority 2014, dated 2021).

The chains behind the UniProt entries cited, without tags or fusion partners. Residues count along the entry.
UniProt Q38C91, 1-773: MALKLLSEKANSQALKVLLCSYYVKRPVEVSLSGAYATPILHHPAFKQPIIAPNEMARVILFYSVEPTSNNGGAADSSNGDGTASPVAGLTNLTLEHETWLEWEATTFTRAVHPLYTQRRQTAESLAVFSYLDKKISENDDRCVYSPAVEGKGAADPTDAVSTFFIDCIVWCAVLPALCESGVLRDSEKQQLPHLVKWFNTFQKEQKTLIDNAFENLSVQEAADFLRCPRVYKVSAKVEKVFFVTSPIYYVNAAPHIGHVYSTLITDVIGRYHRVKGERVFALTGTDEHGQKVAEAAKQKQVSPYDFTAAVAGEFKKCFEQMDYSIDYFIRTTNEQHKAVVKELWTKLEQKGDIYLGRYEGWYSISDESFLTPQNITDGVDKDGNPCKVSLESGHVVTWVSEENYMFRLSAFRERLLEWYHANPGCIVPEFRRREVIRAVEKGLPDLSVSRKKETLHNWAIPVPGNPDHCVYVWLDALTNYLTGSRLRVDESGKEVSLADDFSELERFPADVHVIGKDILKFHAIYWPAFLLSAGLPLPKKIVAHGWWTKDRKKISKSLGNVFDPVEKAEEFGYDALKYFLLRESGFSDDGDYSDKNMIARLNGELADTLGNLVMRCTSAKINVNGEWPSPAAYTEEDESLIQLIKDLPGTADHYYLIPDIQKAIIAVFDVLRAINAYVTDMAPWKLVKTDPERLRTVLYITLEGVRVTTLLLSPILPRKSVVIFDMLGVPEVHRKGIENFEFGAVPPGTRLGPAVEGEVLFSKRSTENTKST

Columns and labels:
T. brucei = assay: Growth inhibition assay of T. brucei cell cultures (Alamar Blue, 48 h); assay type: cell-based; conditions: read-out: B) T. brucei EC50
MetRS (T. brucei) = MetRS (T. brucei) (Trypanosoma brucei brucei, UniProt Q38C91); assay: MetRS (T. brucei) ATP depletion assay using Kinase-Glo; assay type: biochemical; conditions: read-out: A) MetRS (T. brucei) ATP depletion assay using Kinase-Glo, IC50

With `Clc1cc(Cl)cc(CNCCc2nc3cnc(Cl)cc3[nH]2)c1` the EC50 (T. brucei) was 1020 nM and the IC50 (MetRS (T. brucei)) was 87 nM.

The match of structure and compound is tentative.
